Measurements from ChEMBL document CHEMBL6087437 (J Med Chem, 2025).

Assay: Selectivity index, ratio of CC50 for human HeLa cells to EC50 for antiviral activity against wildtype Ebolavirus infected in human HeLa cells
Format: toxicity, cell-based

| Structure (SMILES) | Ratio CC50/EC50 |
| --- | --- |
| O=C(Nc1ccc(N2CCC3(CCC3)CC2)c(C(F)(F)F)c1)c1ccc(CN2C[C@H]3C[C@@H]2CO3)nc1 | 26 |
| O=C(Nc1ccc(N2CCC3(CCC3)CC2)c(C(F)(F)F)c1)c1ccc(CN2C[C@@H]3C[C@H]2CO3)nc1 | 43 |
